Pooled drug test results. Numbers come from NIAID ChemDB, via PubChem.

Shared fields: host cell toxicity; cells: CEM; read-out: CC50

Neighbouring rows are from separate reports.

SMILES,read by,value
Cc1occc1C(=S)Nc1ccc(Cl)c(C(=O)OC(C)C)c1,-,5.2 µg/mL
CN(C)CCCNC(=O)c1ccccc1SSc1ccccc1C(=O)NCCCN(C)C,-,29 µM
CSCCOC(=S)Nc1ccc(Cl)c(C(=O)OC(C)C)c1,-,241 µM
CN[C@H]1C(=O)N[C@@H]2Cc3ccc(cc3)Oc3cc4cc(c3O[C@@H]3O[C@H](C(=O)O)[C@@H](O)[C@H](O)[C@H]3N)Oc3ccc(cc3Cl)[C@@H](O)[C@@H]3NC(=O)[C@H](NC(=O)[C@@H]4NC(=O)[C@@H](NC2=O)c2cc(cc(O)c2Cl)Oc2cc1ccc2O)c1ccc(O)c(c1)-c1c(O)cc(O)cc1[C@@H](C(=O)O)NC3=O,cell count,>500 µM
Nc1ncnc2c1ncn2[C@@H]1OC[C@H](/C=C/P(=O)(O)O)C12CC2,-,>100 µM
C=C(C)[C@@H]1CC[C@]2(C(=O)NCCCCCCCC(=O)NCC(=O)O)CC[C@]3(C)[C@H](CC[C@@H]4[C@@]5(C)CC[C@H](O)C(C)(C)[C@@H]5CC[C@]43C)[C@@H]12,-,>3 µM
CCCCCCCCCCCCCC(=O)NC(CO)C(=O)O,trypan blue,>80 µM
Cc1cc(C)cc(Oc2c(C(C)C)c(=O)[nH]c(=O)n2CC2CCC2)c1,-,17.2 µM
CC(C)OC(=S)Nc1ccc(Cl)c(C(=O)OC(C(C)C)C(C)C)c1,-,20.43 µM
CCC(CC)OC(=O)c1cc(NC(=S)c2ccoc2C)ccc1Cl,-,16 µg/mL
CCCCCCCCCCCCCC(=O)OCC(N)C(=O)O,trypan blue,100 µM
CC(C)OC(=S)Nc1ccc(Cl)c(C(=O)OCC2CC2)c1,-,19.22 µM
CC(C)c1ccc(C2(CN)CCC(=O)N2c2ccccc2)cc1,absorbance,32.9 µM
C=CC(C)(C)OC(=O)c1cc(NC(=S)c2ccoc2C)ccc1Cl,-,25 µg/mL
Cc1ccc(N2C(=O)CCC2(C#N)c2ccccc2OCc2ccccc2)cc1,absorbance,16.1 µM
S=C1NNC2(C(=S)N1)c1ccccc1-c1ccccc12,-,110 µM
C=C(C)[C@@H]1CC[C@]2(C(=O)NCCCCCCCC(=O)N[C@@H](CC(C)C)[C@H](O)CC(=O)O)CC[C@]3(C)[C@H](CC[C@@H]4[C@@]5(C)CC[C@H](O)C(C)(C)[C@@H]5CC[C@]43C)[C@@H]12,-,>3 µM
C/C=C/CSc1cc(NC(=S)c2ccoc2C)ccc1Cl,-,4.7 µg/mL
C=CCSc1cc(NC(=S)OC(C)C)ccc1Cl,-,66.92 µM
Nc1nc2c(ncn2[C@@H]2OC[C@H](/C=C/P(=O)(O)O)C23CC3)c(=O)[nH]1,-,>100 µM
CC(C)=CCOc1cc(NC(=O)c2ccsc2C)ccc1Cl,-,6 µg/mL
C=CCOC(=S)Nc1ccc(Cl)c(C(=O)OC(C)C)c1,-,54.17 µM
C=C(C)[C@@H]1CC[C@]2(C(=O)NCCCCCCCC(=O)NC(C)CC(=O)O)CC[C@]3(C)[C@H](CC[C@@H]4[C@@]5(C)CC[C@H](O)C(C)(C)[C@@H]5CC[C@]43C)[C@@H]12,-,>3 µM
Cc1cc(C)cc(C(=O)c2c(C(C)C)c(=O)[nH]c(=O)n2CCC2CC=CC2)c1,-,35.8 µM
O=C(c1ccccc1SSc1ccccc1C(=O)N1CCC(O)C1)N1CCC(O)C1,-,>200 µM
C=C(C)[C@@H]1CC[C@]2(C(=O)NCCCC(=O)NCCCCCC(=O)O)CC[C@]3(C)[C@H](CC[C@@H]4[C@@]5(C)CC[C@H](O)C(C)(C)[C@@H]5CC[C@]43C)[C@@H]12,-,>3 µM
Cc1sccc1C(=S)Nc1ccc(Cl)c(OCC(=O)OC(C)(C)C)c1,-,2.1 µg/mL
NC1=NNC2(C(=O)N1)c1ccccc1-c1ccccc12,-,75 µM
CCOC(=O)c1cc(NC(=S)OC(C)C)ccc1SC,-,76.57 µM
O=C(NNC(=O)c1ccccc1SSc1ccccc1C(=O)NNC(=O)c1ccncc1)c1ccncc1,-,67 µM
Cc1cc(C)cc(C(=O)c2c(C(C)C)c(=O)[nH]c(=O)n2CC2CC=CC2)c1,-,>1130 µM
CCOC(=O)c1ccc(NC(=O)c2ccccc2SSc2ccccc2C(=O)Nc2ccc(C(=O)OCC)cc2)cc1,-,64 µM
CCc1c(Sc2cc(C)cc(C)c2)n(Cc2ccccc2)c(=O)[nH]c1=O,-,>1090 µM
CCOC(=O)C(C)Oc1cc(NC(=S)OC(C)C)ccc1Cl,-,205 µM
Cc1sccc1C(=S)Nc1ccc(Cl)c(SCC(=O)OC(C)(C)C)c1,-,5.4 µg/mL
CC(C)(C)[Si](C)(C)OC[C@H]1O[C@@H](n2ccc(=O)[nH]c2=O)[C@H](O[Si](C)(C)C(C)(C)C)[C@@]12O[C@H]2C(=O)NN,propidium iodide / flow cytometry,10–50 µM
CC(C)=CCOc1cc(NC(=O)c2ccoc2C)ccc1Cl,-,>100 µg/mL
O=C(Nc1nccs1)c1ccccc1SSc1ccccc1C(=O)Nc1nccs1,-,18 µM
Cc1occc1C(=S)Nc1ccc(Cl)c(OCC(=O)OC(C)(C)C)c1,-,4.3 µg/mL
Cc1cc(C)cc(Oc2c(C(C)C)c(=O)[nH]c(=O)n2CCC2CC=CC2)c1,-,18.2 µM
CCC(CC)COC(=O)c1cc(NC(=S)c2ccoc2C)ccc1Cl,-,7 µg/mL
CCC(CC)OC(=O)c1cc(NC(=S)OC(C)C)ccc1Cl,-,15.99 µM
CC1=C(C(=O)Nc2ccc(Cl)c(C(=O)OC(C(C)C)C(C)C)c2)SCCO1,-,5.8 µg/mL
CC(C)OC(=S)Nc1ccc(Cl)c(C(=O)OC2(C)COC2)c1,-,20.65 µM
CCOc1ccc(C2(C#N)CC(=O)N2Cc2ccccc2)cc1,absorbance,29.4 µM
O=C(c1ccccc1SSc1ccccc1C(=O)N1CCCC1)N1CCCC1,-,25 µM
CC(C)OC(=O)c1cc(NC(=S)c2ccco2)ccc1Cl,-,7.4 µg/mL
CCCCOC(=S)Nc1ccc(Cl)c(C(=O)OC(C)C)c1,-,21.22 µM
CC(C)OC(=O)c1cc(NC(=S)c2ccccc2N)ccc1Cl,-,6.7 µg/mL
O=C(c1ccccc1SSc1ccccc1C(=O)N1CCSCC1)N1CCSCC1,-,42 µM
CC(C)(C)[Si](C)(C)OC[C@H]1O[C@@H](n2ccc(=O)[nH]c2=O)[C@H](O[Si](C)(C)C(C)(C)C)/C1=C/CO,propidium iodide / flow cytometry,24 µM
CO/N=C/c1cc(NC(=S)c2ccoc2C)ccc1OC,-,>100 µg/mL
C=CCNC(=O)NC1=CSC2=NC(=O)C3(NN12)c1ccccc1-c1ccccc13,-,70 µM
O=C1N[C@H]2C(=O)N[C@H]3C(=O)N[C@H](C(=O)N[C@H](C(=O)O)c4cc(O)cc(O)c4-c4cc3ccc4O)[C@H](O)c3ccc(c(Cl)c3)Oc3cc2cc(c3O)Oc2ccc(cc2Cl)C[C@H]2NC(=O)[C@H](NC(=O)C34CC5CC(CC(C5)C3)C4)c3ccc(O)c(c3)Oc3cc(O)cc(c3)[C@@H]1NC2=O,cell count,83 µM
CCCOC(=O)c1cc(NC(=S)OC(C)C)ccc1Cl,-,34.83 µM
COC(O)[C@@H]1OC12[C@@H](CO[Si](C)(C)C(C)(C)C)O[C@@H](n1cc(C)c(=O)[nH]c1=O)[C@@H]2O[Si](C)(C)C(C)(C)C,propidium iodide / flow cytometry,22 µM
Cc1cn([C@@H]2O[C@H](CO)[C@@H](CO)[C@@H]2F)c(=O)[nH]c1=O,-,≥100 µM
CO/N=C/c1cc(NC(=S)c2ccoc2C)ccc1Cl,-,24 µg/mL
Cc1cc2c(cc1Cl)Sc1nccn1S2(=O)=O,-,79.3 µM
CC(C)(C)[Si](C)(C)OC[C@H]1O[C@@H](n2ccc(=O)[nH]c2=O)[C@H](O[Si](C)(C)C(C)(C)C)C1(O)C(Cl)C(N)=O,propidium iodide / flow cytometry,8 µM
CCc1c(Oc2cc(C)cc(C)c2)n(CC2CCCC2)c(=O)[nH]c1=O,-,21.6 µM
C=CCNC(=O)NC(=O)CSC1=NNC2(C(=O)N1)c1ccccc1-c1ccccc12,-,31 µM
CC(C)OC(=S)Nc1ccc(Cl)c(C(=O)OCc2ccccc2)c1,-,>275 µM
O=C(OC1CCCCC1)c1cc(NC(=S)c2ccccc2F)ccc1Cl,-,19 µg/mL
NS(=O)(=O)c1ccc(CNC(=O)c2ccccc2SSc2ccccc2C(=O)NCc2ccc(S(N)(=O)=O)cc2)cc1,-,30 µM
COC(=O)[C@H]1NC(=O)[C@H]2NC(=O)[C@H](NC(=O)[C@@H]3NC(=O)[C@H]4NC(=O)[C@H](NC(=O)[C@H](N)c5ccc(O)c(c5)Oc5cc4cc(O)c5C)[C@H](O)c4ccc(cc4)Oc4cc3cc(c4O)Oc3ccc(cc3)[C@H]2O[C@@H]2C[C@@H](N)[C@@H](O)[C@H](C)O2)c2ccc(O)c(c2)-c2c(O)cc(O)cc21,cell count,>100 µM
C[C@H](NC(=O)c1ccccc1SSc1ccccc1C(=O)N[C@@H](C)C(=O)O)C(=O)O,-,>200 µM
CCCCCCCCCCNCc1c(O)cc2c(c1O)-c1cc(ccc1O)[C@H]1NC(=O)[C@@H]3NC(=O)[C@H](CC(N)=O)NC(=O)[C@H](NC(=O)[C@@H](CC(C)C)NC)[C@H](O)c4ccc(c(Cl)c4)Oc4cc3cc(c4OC3O[C@H](CO)[C@@H](O)[C@H](O)[C@H]3O[C@H]3C[C@](C)(N)[C@@H](O)[C@H](C)O3)Oc3ccc(cc3)[C@@H](O[C@H]3C[C@](C)(N)[C@@H](O)[C@H](C)O3)[C@H](NC1=O)C(=O)N[C@@H]2C(=O)O,cell count,24 µM
Cc1cn([C@@H]2O[C@H](CO[Si](C)(C)C(C)(C)C)C3(O[C@H]3C(=O)NN)[C@H]2O[Si](C)(C)C(C)(C)C)c(=O)[nH]c1=O,propidium iodide / flow cytometry,5 µM
CCc1c(Oc2cc(C)cc(C)c2)n(CCC2C=CCC2)c(=O)[nH]c1=O,-,>1120 µM
Cc1cnc2n1S(=O)(=O)c1cc(C(=O)O)c(Cl)cc1S2,-,>200 µM
N#CC(NCc1ccc(C=O)cc1)c1ccccc1,absorbance,20.1 µM
CCc1c(C(=O)c2cc(C)cc(C)c2)n(CC2CC=CC2)c(=O)[nH]c1=O,-,>1130 µM
Cc1occc1C(=S)Nc1ccc(Cl)c(C(=O)OC2CCCC2)c1,-,4.3 µg/mL

For reference, 5 entries again:

SMILES	read by	value
CC(C)OC(=S)Nc1ccc(Cl)c(C(=O)OCC2CC2)c1	-	19.22 µM
C=C(C)[C@@H]1CC[C@]2(C(=O)NCCCC(=O)NCCCCCC(=O)O)CC[C@]3(C)[C@H](CC[C@@H]4[C@@]5(C)CC[C@H](O)C(C)(C)[C@@H]5CC[C@]43C)[C@@H]12	-	>3 µM
CCCCCCCCCCCCCC(=O)OCC(N)C(=O)O	trypan blue	100 µM
Cc1occc1C(=S)Nc1ccc(Cl)c(C(=O)OC2CCCC2)c1	-	4.3 µg/mL
Nc1ncnc2c1ncn2[C@@H]1OC[C@H](/C=C/P(=O)(O)O)C12CC2	-	>100 µM

CCn is the concentration with n% toxicity to the cells. Blank or dashed fields: not listed here. a–b is a range or a potency band.